Reference: patent US6689764B1, “Treatment of angiogenesis dependent conditions with dextrin sulphate” (priority 1999, dated 2004)

Test system: HIV-1
Settings: after administration of several grams of the drug

## dextrin 2-sulphate
  clinical or biochemical toxicity: No clinical or biochemical toxicity
